The series relates to CCCCCCCCCCCCC/C=C/[C@@H](O)[C@@H](N)COP(=O)(O)O. In words: purified protein. The note with it: pH 7.5.

“S1PL2025 (Burkholderia pseudomallei K96243)”: the Michaelis constant (Km) was found to be 50.19 ± 8.3 µM, the Vmax was found to be 0.0082 µmol/min/mg and the kcat/Km worked out at 150 M⁻¹ s⁻¹.

The Km is the substrate concentration at which the rate is half of its maximum. As usually defined, the Vmax is the rate approached at saturating substrate. As usually defined, the kcat/Km is the turnover number divided by the Michaelis constant.
